One assay deals with HCoV-229E. Description: Anti-human coronavirus 229E activity in MRC5 cells. The following applies: read-out: HCoV-229E EC50, 72 h, viral cytopathic effect. A general note: Cytopathic effects are the visible damage that an infection or toxin causes in cultured cells.
The test system of another assay is HIV-IIIb. Description: Anti-HIV activity in MT4 cells. The settings on record: read-out: HIV-IIIb in MT4 cells EC50, 5 days.
The mark [1] stands for this setting: read-out: HCV genotype 1b replicon EC50, Huh7 cells, 3 days, HCV RNA.

Broadly, the EC50 is the concentration that produces a half-maximal response.

Like-named read-outs stand apart in the source and are kept apart here.

For the compound `O=C(NC(=O)c1c(F)cccc1Cl)NC1c2ccccc2-c2ccccc21` [TMN-355, reference compound], in the assay on HCV genotype 1b replicon (setting [1]), the EC50 was above 50 µM.

For the compound `O=C(NC(=O)c1c(Cl)cccc1Cl)NC1c2ccccc2-c2ccccc21`, the EC50 in the assay on HCV genotype 1b replicon (setting [1]) was above 50 µM.

Turning to `CSc1ccccc1C1CCCN1C(=O)C(CC(C)C)NC(=O)NCc1ccc(N)cc1` (stereo not drawn), the EC50 in the assay with HCoV-229E turned out to be 27.6 µM; with HIV-IIIb, 13 µM; in the assay with HCV genotype 1b replicon (read-out: EC50 HCV (WT) subgenomic replicon, wild-type genotype 1b replicon, comparison with mutated replicons (Table 3)) it was 2.9 µM; in the assay on HCV genotype 1b replicon (setting [1]) it was 1.7 µM.
